Publication PMC11840927, “Frataxin Traps Low Abundance Quaternary Structure to Stimulate Human Fe–S Cluster Biosynthesis” (Biochemistry, 2025)
“And” between values parts separate entries of the source, which are not always exact repeats. Equal entries are not always repeated.

Biological target: the molecule itself
Assay: native MS; SDAec alone, EMR Orbitrap, 200 mM ammonium acetate pH 8.5; α2β2γ2 complex against αβγ protomers

B1: NFS1(Δ1–55)-ISD11(S11A)-ACPec complex with N-terminal His6 tag on NFS1 (complex, human | Escherichia coli)
chain 1: LRPLYMDVQATTPLDPRVLDAMLPYLINYYGNPHSRTHAYGWESEAAMERARQQVASLIGADPREIIFTSGATESNNIAIKGVARFYRSRKKHLITTQTEHKCVLDSCRSLEAEGFQVTYLPVQKSGIIDLKELEAAIQPDTSLVSVMTVNNEIGVKQPIAEIGRICSSRKVYFHTDAAQAVGKIPLDVNDMKIDLMSISGHKIYGPKGVGAIYIRRRPRVRVEALQSGGGQERGMRSGTVPTPLVVGLGAACEVAQQEMEYDHKRISKLSERLIQNIMKSLPDVVMNGDPKHHYPGCINLSFAYVEGESLLMALKDVALSSGSACTSASLEPSYVLRAIGTDEDLAHSSIRFGIGRFTTEEEVDYTVEKCIQHVKRLREMSPLWEMVQDGIDLKSIKWTQH
chain 2: MAASSRAQVLALYRAMLRESKRFSAYNYRTYAVRRIRDAFRENKNVKDPVEIQTLVNKAKRDLGVIRRQVHIGQLYSTDKLIIENRDMPRT
chain 3: MSTIEERVKKIIGEQLGVKQEEVTNNASFVEDLGADSLDTVELVMALEEEFDTEIPDEEAEKITTVQAAIDYINGHQA
modifications: covalently attached PLP | acyl-4′PPT (assumed mass 523 Da)
notes: NFS1, human cysteine desulfurase, Δ1–55 (residues 56 to the C-terminus); ISD11 (LYRM superfamily), human, S11A; Escherichia coli acyl-carrier protein (ACPec) associated with NFS1-ISD11; Used uniformly 14N or 15N labelled in the exchange experiments; Calculated masses excluded the N-terminal methionine if present; also called SDAec; His-tagged SDAec; not shown: His6, N-terminal, kept; copies: 2 + …
- stoichiometry N: 2 and 4
